Reference: patent publication US20210204550A1, “STABILIZED FUNGICIDAL COMPOSITION” (priority 2018, published 2021)

Test system: Alternaria solani
Test: Antifungal activity against Alternaria solani on tomato plants (percent control relative to untreated plants)
Type: in vivo
Conditions: across the three assays of Tables 2-4; agent at 2% in 60:40 (BC:water) dilution

OCCN(CCO)CCO
effect of stabilizing agent on antifungal activity of Paenibacillus sp. strain NRRL B-50972 BC: preserved the antifungal activity
